Source: publication PMC5519681, “Differential control of dNTP biosynthesis and genome integrity maintenance by the dUTPase superfamily enzymes” (Scientific Reports, 2017)

Tests used:
[1] = test system: Nc1ccn([C@H]2C[C@H](O)[C@@H](COP(=O)(O)OP(=O)(O)OP(=O)(O)O)O2)c(=O)n1; experiment: purified protein; settings: pH 7.5; 20.0 °C
[2] = test system: O=c1ccn([C@H]2C[C@H](O)[C@@H](COP(=O)(O)OP(=O)(O)OP(=O)(O)O)O2)c(=O)[nH]1; experiment: purified protein; settings: pH 7.5; 20.0 °C

## (Mycobacterium tuberculosis H37Rv)
[1]
  Km: 20 ± 12 µM
  kcat/Km: 1100 M⁻¹ s⁻¹
[2]
  Km: 12 ± 3 µM
